Reference: US9206463B2, “Method of testing a disinfectant or antibiotic using phenanthridium derivatives” (Montana State University, priority 2006, dated 2015)

Legend:
Listeria monocytogenes = test: genomic DNA yield of live cells after EMA treatment; details: EMA 50 μM
Staphylococcus aureus = test: as above; details: EMA 50 μM
Mycobacterium avium = test: as above; details: EMA 50 μM
8 bacterial species = test: genomic DNA yield of live and dead cells after PMA or EMA treatment, wider spectrum of bacterial species; assay type: cell-based; details: all species tested, 50 μM, 5 minutes
Streptococcus sobrinus = test: genomic DNA yield of live and dead cells after PMA or EMA treatment; assay type: cell-based; details: isopropanol-killed cells

| SMILES | loss of DNA due to EMA treatment of live cells (Listeria monocytogenes) | loss of DNA due to EMA treatment of live cells (Staphylococcus aureus) | loss of DNA due to EMA treatment of live cells (Mycobacterium avium) | DNA from dead cells after dye treatment (8 bacterial species) | genomic DNA yield of dead cells after PMA treatment (Streptococcus sobrinus; PMA 3 μM) | genomic DNA yield of dead cells after PMA treatment (Streptococcus sobrinus; PMA 30 and 240 μM) |
| --- | --- | --- | --- | --- | --- | --- |
| CC[n+]1c(-c2ccccc2)c2cc(N=[N+]=[N-])ccc2c2ccc(N)cc21.[Br-] [EMA] | significant loss of DNA | significant loss of DNA | significant loss of DNA |  |  |  |
| CC[N+](C)(CC)CCC[n+]1c(-c2ccccc2)c2cc(N=[N+]=[N-])ccc2c2ccc(N)cc21.[Cl-].[Cl-] [PMA] |  |  |  | efficiently removed | significant DNA background | efficiently removed the DNA from dead cells |
